Read-outs that look alike come from different tables or passages of the source.
Molecular target: dihydrolipoamide acyltransferase (DlaT) (Mycobacterium tuberculosis, UniProt P9WIS7)
Test: DlaT inhibition (Dlat IC50); DTNB peroxidase assay with Lpd, DlaT and AhpD
Conditions: read-out: Dlat IC50 category

Sequences of proteins named here, by UniProt entry; tags and fusion partners are left off.
UniProt P9WIS7, whole entry: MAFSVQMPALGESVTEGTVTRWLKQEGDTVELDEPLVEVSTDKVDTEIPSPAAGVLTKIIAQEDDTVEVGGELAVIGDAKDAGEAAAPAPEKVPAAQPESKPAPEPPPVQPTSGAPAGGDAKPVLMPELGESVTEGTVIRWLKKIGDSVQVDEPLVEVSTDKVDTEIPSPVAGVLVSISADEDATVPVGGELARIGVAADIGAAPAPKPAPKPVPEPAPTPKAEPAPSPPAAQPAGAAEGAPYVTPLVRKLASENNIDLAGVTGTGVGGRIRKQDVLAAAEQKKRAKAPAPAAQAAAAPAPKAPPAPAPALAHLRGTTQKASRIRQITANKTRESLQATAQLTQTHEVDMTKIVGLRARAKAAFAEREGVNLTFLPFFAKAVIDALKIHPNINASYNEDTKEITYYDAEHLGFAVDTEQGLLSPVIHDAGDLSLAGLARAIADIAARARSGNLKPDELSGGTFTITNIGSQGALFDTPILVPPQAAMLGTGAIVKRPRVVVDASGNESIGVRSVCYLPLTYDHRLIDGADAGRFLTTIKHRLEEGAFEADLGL

O=C(O)C(c1ccccc1)N1C(=O)C(=Cc2ccc(Oc3ccc(Cl)cc3)o2)SC1=S (stereo not drawn)
IC50 (Table 15, Compounds O1 to O5): < 10 µM

O=C(O)c1cccc(N2C(=O)C(=Cc3ccc(-c4cc(C(=O)N5CCCCC5)c5ccccc5n4)o3)SC2=S)c1
IC50 (Table 17, Compounds Q1 to Q9): 11 to 40 µM

O=C(O)C(c1ccccc1)N1C(=O)C(=Cc2ccc(-c3cc4ccccc4s3)o2)SC1=S (stereo not drawn)
IC50 (Table 10, Compounds J1 to J3): < 10 µM

O=C(O)CN1C(=O)C(=Cc2ccc(Cc3ccccc3Cl)o2)SC1=S
IC50 (Table 15, Compounds O1 to O5): 11 to 40 µM

O=C(O)CN1C(=O)C(=Cc2ccc(-c3cc4ccccc4s3)o2)SC1=S
IC50 (Table 10, Compounds J1 to J3): < 10 µM

O=C(O)c1cccc(N2C(=O)C(=Cc3ccc(-c4cc(C(=O)N5CCCCC5)c5cc(Br)ccc5n4)o3)SC2=S)c1
IC50 (Table 17, Compounds Q1 to Q9): 11 to 40 µM

O=C(O)CN1C(=O)C(=Cc2ccc(-c3cc(C(=O)N4CCCCC4)c4cc(Br)ccc4n3)o2)SC1=S
IC50 (Table 18, Compounds R2 to R6): 11 to 40 µM

O=C(O)CCN1C(=O)C(=Cc2ccc(Oc3ccc(Cl)cc3)o2)SC1=S
IC50 (Table 15, Compounds O1 to O5): 11 to 40 µM

O=C(O)CCCCCN1C(=O)C(=Cc2ccc(-c3cncnc3)o2)SC1=S
IC50 (Table 18, Compounds R2 to R6): 11 to 40 µM

O=C(O)c1cccc(N2C(=O)C(=Cc3ccc(-c4ccc(N5CCOCC5)cc4)o3)SC2=S)c1
IC50 (Table 1, Compounds A1 to A294): 11 to 40 µM

O=C(O)C(c1ccccc1)N1C(=O)C(=Cc2ccc(Cc3ccccc3Cl)o2)SC1=S (stereo not drawn)
IC50 (Table 15, Compounds O1 to O5): 11 to 40 µM

O=C(O)c1cc(N2C(=O)C(=Cc3ccc(-c4cc5ccccc5s4)o3)SC2=S)ccc1O
IC50: < 10 µM

From patent publication US8338465B2, “Cyclic carboxylic acid rhodanine derivatives for the treatment and prevention of tuberculosis” (priority 2006, dated 2012)
